Where “and” joins values, the source holds several entries; their conditions need not be identical. Equal entries are not always repeated.
How the values were obtained:
[1] = target: G protein of Bangladesh Nipah virus, soluble extracellular domain (Nipah virus (Bangladesh strain))
[2] = target: the molecule itself

| Molecule | stoichiometry N [1] | stoichiometry N [2] |
| --- | --- | --- |
| G protein of Bangladesh Nipah virus, soluble extracellular domain | 2 and 4 |  |
| G protein of Malaysia Nipah virus, soluble extracellular domain (domain or fragment) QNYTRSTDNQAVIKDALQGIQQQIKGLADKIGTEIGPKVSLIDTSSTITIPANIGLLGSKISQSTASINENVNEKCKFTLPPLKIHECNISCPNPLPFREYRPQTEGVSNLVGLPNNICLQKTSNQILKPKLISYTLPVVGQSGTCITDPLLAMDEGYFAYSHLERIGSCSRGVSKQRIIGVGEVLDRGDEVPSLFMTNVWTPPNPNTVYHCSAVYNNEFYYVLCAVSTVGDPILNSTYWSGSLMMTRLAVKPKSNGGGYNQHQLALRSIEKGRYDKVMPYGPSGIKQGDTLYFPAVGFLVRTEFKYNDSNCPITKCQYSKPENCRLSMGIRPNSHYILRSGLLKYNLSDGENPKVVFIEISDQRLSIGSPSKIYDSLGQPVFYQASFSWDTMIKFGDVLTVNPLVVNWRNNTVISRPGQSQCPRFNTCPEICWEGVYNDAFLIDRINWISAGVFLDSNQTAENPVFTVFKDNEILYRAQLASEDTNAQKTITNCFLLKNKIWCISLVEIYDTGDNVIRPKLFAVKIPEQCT |  | 2 |

Reference: article PMC7232446, “Fc-Based Recombinant Henipavirus Vaccines Elicit Broad Neutralizing Antibody Responses in Mice” (Viruses, 2020)
